Drawing on patent US5364931A (Bayer Aktiengesellschaft, priority 1990, dated 1994), this text covers IC50 for 26 molecules.

By UniProt entry, the sequences of proteins in these tests, tags left out. Residues count along the entry.
UniProt P04584, 514-612 limits assumed: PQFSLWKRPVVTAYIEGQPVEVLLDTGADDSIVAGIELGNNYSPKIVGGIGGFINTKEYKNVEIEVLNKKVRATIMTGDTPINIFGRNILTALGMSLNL

Read-outs that look alike come from different tables or passages of the source.

One test concerns the target HIV protease (Human immunodeficiency virus type 1 group M subtype B, UniProt P04585). The test can be described thus: HIV-specific protease enzyme test (RP-HPLC), compounds of formula (I). The method, then: (§1) The results for the examples listed below were determined by the HIV test system described in the following literature reports [cf. Hansen, J., Billich, S., Schulze, T. Sukrow, S. and Molling, K. (1988), EMBO Journal, Vol. 7, No. 6, pages 1785-1791]: purified HIV protease was incubated with synthetic peptide which imitates a cleavage site in the Gag precursor protein and represents an in vivo cleavage site of the HIV protease. The resulting cleavage products of the synthetic peptide were analysed by means of reverse phase high performance liquid chromatography (RP-HPLC). The IC50 values given relate to the substance concentration which causes a 50% inhibition of protease activity under the abovementioned test conditions.

A further test has as its system HIV. The experiment in a line: HIV infection in cell culture (syncytia formation in infected PBLs). The class given is cell-based. The following applies: read-out: IC50 (50% suppression of virus-induced syncytia); HIV-infected normal human blood lymphocytes (PBLs), evaluated day 3 to 6 after infection. The method, then: The HIV test was carried out with slight modifications by the method of Pauwels et al. (Journal of Virological Methods 20 (1988) 309-321).
Normal human blood lymphocytes (PBLs) were concentrated by means of Ficoll-Hypaque and stimulated with phytohaemagglutinin (90 μg/ml) and interleukin 2 (40 U/ml) in RPMI 1640 and 20% foetal calf serum. For infection with the infectious HIV, PBLs were pelleted and the cell pellet was then suspended in 1 ml of HIV virus adsorption solution and incubated at 37° C. for 1 hour.
The virus adsorption solution was centrifuged and the infected cell pellet was taken up in growth medium such that a concentration of 1×10^5 cells per ml was established. The cells infected in this way were pipetted into the wells of 96-well microtitre plates at a concentration of 1×10^4 cells/well.
The first vertical row of the microtitre plate contained only growth medium and cells which had not been infected, but otherwise treated exactly as described above (cell control). The second vertical row of the microtitre plate contained only HIV-infected cells (virus control) in growth medium. The other wells contained the compounds according to the invention at different concentrations, starting from the wells of the 3rd vertical row of the microtitre plate, from which the test compounds were diluted 10 times in two-fold steps.
The test batches were incubated at 37° C. until, in the untreated virus control, the syncytia formation typical for HIV occurred (between day 3 and 6 after infection), which was then evaluated microscopically.
The IC50 values were determined as the concentration of the treated and infected cells at which 50% (about 10 syncytia) of the virus-induced syncytia were suppressed by treatment with the compound according to the invention.

For the next test, the target named is HIV-2 protease (Human immunodeficiency virus type 2 subtype A, UniProt P04584). The test can be described thus: HIV-specific protease enzyme test (RP-HPLC), HIV-2. The conditions noted are these: read-out: IC50 (RP-HPLC) HIV-2, compounds of general formula (VIa). The method, then: as §1
The target of the next test is HIV-1 protease (Human immunodeficiency virus type 1 group M subtype B, UniProt P04585). The experiment in a line: HIV-specific protease enzyme test (RP-HPLC), HIV-1. The class given is biochemical. The conditions noted are these: read-out: IC50 (RP-HPLC) HIV-1, compounds of general formula (VIa). The method, then: as §1
The mark [1] stands for this setting: read-out: IC50 (RP-HPLC), purified HIV protease, synthetic Gag cleavage-site peptide, compounds of general formula (I).
[2] abbreviates: read-out: IC50 (RP-HPLC), purified HIV protease, synthetic Gag cleavage-site peptide, compounds of general formula (I), tested form: 2HCl.

On to `CCOP(=O)(OCC)C1CCCN1C[C@H](O)[C@H](Cc1ccccc1)NC(=O)[C@@H](NC(=O)c1cc2ccccc2[nH]1)C(C)C` (stereo partly drawn), for which the IC50 on HIV protease (setting [1]) amounted to 500 nM.

Turning to `CCOP(=O)(OCC)C1CCCN1C[C@H](O)[C@H](Cc1ccccc1)NC(=O)[C@@H](NC(=O)[C@H](Cc1cccc2ccccc12)CS(=O)(=O)C(C)(C)C)C(C)C` (single isomer, unassigned) [28 (non-polar)], the IC50 at HIV protease (setting [1]) came to 1000 nM.

With `CCOP(=O)(OCC)C1CCCN1C[C@H](O)[C@H](CC1CCCCC1)NC(=O)[C@@H](NC(=O)[C@H](Cc1cccc2ccccc12)CS(=O)(=O)C(C)(C)C)C(C)C` (single isomer, unassigned), the IC50 at HIV protease (setting [1]) was < 10 nM; in the test on HIV, 9500 nM.

For `CC(C)[C@H](NC(=O)[C@H](Cc1ccccc1)CS(=O)(=O)C(C)(C)C)C(=O)N[C@@H](Cc1ccccc1)C1CO1` (stereo partly drawn), the IC50 on HIV-2 protease was 1 nM; on HIV-1 protease, 10 nM.

For `CCOP(=O)(OCC)C1CCCN1C[C@H](O)[C@H](Cc1ccccc1)NC(=O)[C@@H](NC(=O)[C@H](Cc1ccccc1)NC(=O)OC(C)(C)C)C(C)C` (single isomer, unassigned) [18], the IC50 on HIV protease (setting [1]) was 1 nM.

For the molecule `CC(C)[C@H](NC(=O)[C@H](Cc1ccccc1)NS(C)(=O)=O)C(=O)N[C@@H](Cc1ccccc1)C1CO1` (stereo partly drawn), the IC50 on HIV-2 protease and on HIV-1 protease was 10 nM in each case.

For the molecule `CC(C)[C@H](NC(=O)[C@H](Cc1ccccc1)NS(C)(=O)=O)C(=O)N[C@@H](CC1CCCCC1)C1CO1` (stereo partly drawn), the IC50 on HIV-1 protease is 10 nM.

`CCOP(=O)(OCC)C1CCCN1C[C@H](O)[C@H](Cc1ccccc1)NC(=O)[C@@H](NC(=O)[C@H](Cc1cccc2ccccc12)CS(=O)(=O)C(C)(C)C)C(C)C` (single isomer, unassigned) [29 (polar)]: the values for the IC50 at HIV protease (setting [1]) and in the test on HIV were 1 nM and 4700 nM, respectively.

Regarding `CC(C)[C@H](NC(=O)[C@H](Cc1ccccc1)NC(=O)OCc1ccccc1)C(=O)N[C@@H](CC1CCCCC1)C1CO1` (single isomer, unassigned) [66], the IC50 on HIV-1 protease was 100 nM.

For the molecule `CCOP(=O)(OCC)C1CCCN1C[C@H](O)[C@H](Cc1ccccc1)NC(=O)[C@@H](NC(=O)[C@H](Cc1ccccc1)NC(=O)OC(C)(C)C)C(C)C` (single isomer, unassigned) [17], on HIV protease (setting [1]), the IC50 amounted to 10 nM.

Consider `CC(C)[C@H](NC(=O)[C@H](Cc1ccccc1)NC(=O)OCc1ccccc1)C(=O)N[C@@H](CC1CCCCC1)C1CO1` (single isomer, unassigned) [65], for which the IC50 on HIV-1 protease is 1000 nM.

Consider `CCOP(=O)(OCC)C1CCCN1C[C@H](O)[C@H](Cc1ccccc1)NC(=O)[C@@H](NC(=O)[C@@H](N)Cc1ccccc1)C(C)C` (single isomer, unassigned) [10], for which the IC50 at HIV protease (setting [2]) was found to be 50 nM.

For `CC(C)[C@H](NC(=O)[C@H](Cc1cccc2ccccc12)CS(=O)(=O)C(C)(C)C)C(=O)N[C@@H](CC1CCCCC1)C1CO1` (stereo partly drawn), the IC50 on HIV-1 protease came to 1 nM.

Consider `CC(C)[C@H](NC(=O)[C@H](Cc1cccc2ccccc12)CS(=O)(=O)C(C)(C)C)C(=O)N[C@@H](Cc1ccccc1)C1CO1` (stereo partly drawn), for which the IC50 at HIV-1 protease is 1 nM.

With `CC(C)[C@H](NC(=O)[C@H](CC1CCCCC1)NC(=O)OC(C)(C)C)C(=O)N[C@@H](Cc1ccccc1)C1CO1` (stereo partly drawn), the IC50 in the test on HIV worked out at 10000 nM; on HIV-1 protease, 1 nM.

As to `CC(C)[C@H](NC(=O)[C@H](Cc1ccccc1)NC(=O)CC(C)(C)C)C(=O)N[C@@H](CC1CCCCC1)C1CO1` (stereo partly drawn), the IC50 on HIV-2 protease stood at 1000 nM; on HIV-1 protease, 10 nM.

Regarding `CCOP(=O)(OCC)C1CCCN1C[C@H](O)[C@H](Cc1ccccc1)NC(=O)[C@@H](NC(=O)c1ccc2ccccc2n1)C(C)C` (stereo partly drawn), the IC50 on HIV protease (setting [1]) was found to be 500 nM.

Regarding `CC(C)[C@H](NC(=O)[C@H](CC1CCCCC1)NC(=O)OC(C)(C)C)C(=O)N[C@@H](CC1CCCCC1)C1CS1` (stereo partly drawn), at HIV-1 protease, the concentration for half-maximal inhibition (IC50) amounted to 100 nM.

Regarding `CCOP(=O)(OCC)C1CCCN1C[C@H](O)[C@H](Cc1ccccc1)NC(=O)[C@@H](NC(=O)[C@@H](N)Cc1ccccc1)C(C)C` (single isomer, unassigned) [11], the IC50 at HIV protease (setting [2]) was 500 nM.

On to `CC(C)[C@H](NC(=O)[C@H](Cc1ccccc1)NC(=O)OCc1ccccc1)C(=O)N[C@@H](Cc1ccccc1)C1CO1` (stereo partly drawn), for which the IC50 on HIV-1 protease was 0.1 nM.

For the molecule `CCOP(=O)(OCC)C1CCCN1C[C@H](O)[C@H](Cc1ccccc1)NC(=O)[C@@H](NC(=O)[C@H](CC1CCCCC1)NC(=O)OC(C)(C)C)C(C)C` (stereo partly drawn), the IC50 at HIV protease (setting [1]) was 100 nM.

Consider `CC(C)[C@H](NC(=O)[C@H](Cc1ccccc1)CS(=O)(=O)C(C)(C)C)C(=O)N[C@@H](CC1CCCCC1)C1CO1` (stereo partly drawn), for which the IC50 came to 1 nM at HIV-2 protease and 10 nM on HIV-1 protease.

`CC(C)[C@H](NC(=O)c1ccc2ccccc2n1)C(=O)N[C@@H](Cc1ccccc1)C1CO1` (single isomer, unassigned) [56]: on HIV-1 protease, the IC50 stood at 10 nM.

On to `CCOP(=O)(OCC)C1CCCN1C[C@H](O)[C@H](CC1CCCCC1)NC(=O)[C@H](CC(N)=O)NC(=O)[C@H](Cc1ccccc1)NC(=O)[C@H](CO)NC(=O)OC(C)(C)C` (stereo partly drawn), for which, at HIV protease (setting [1]), the IC50 was 1000 nM.

Consider `CC(C)[C@H](NC(=O)[C@H](Cc1ccccc1)NC(=O)OC(C)(C)C)C(=O)N[C@@H](Cc1ccccc1)C1CO1` (stereo partly drawn), for which the IC50 at HIV-1 protease was found to be 10 nM.

For `CCOP(=O)(OCC)C1CCCN1C[C@H](O)[C@H](Cc1ccccc1)NC(=O)[C@@H](NC(=O)[C@H](Cc1ccccc1)NC(=O)[C@H](CO)NC(=O)OC(C)(C)C)C(C)C` (stereo partly drawn), the IC50 on HIV protease (setting [1]) is 100 nM.

The IC50 is the concentration at which inhibition is half-maximal.
